Experimental data reported in publication PMC9517990 (Communications Biology, 2022).

Experiments:
[1] = biological target: neuraminidase of A/South Korea/90207/2020 NA-H275Y + PA-I38T virus (Influenza A virus (A(H1N1)pdm09), UniProt A0A0X9QTS2, H275Y); assay: Fluorometric neuraminidase inhibition assay, NA-H275Y + PA-I38T isolate; type: biochemical; conditions: NA-H275Y + PA-I38T virus isolate vs NA-H275 wild type
[2] = biological target: neuraminidase of A/South Korea/90207/2020 NA-H275Y virus (Influenza A virus (A(H1N1)pdm09), UniProt A0A0X9QTS2, H275Y); assay: Fluorometric neuraminidase inhibition assay, NA-H275Y isolate; type: biochemical; conditions: NA-H275Y virus isolate vs NA-H275 wild type

SMILES: CCC(CC)[C@H](NC(C)=O)[C@@H]1[C@H](O)[C@@H](C(=O)O)C[C@H]1N=C(N)N [Peramivir, peramivir]
- IC50 fold change compared to WT [1]: 103 fold
- IC50 fold change compared to WT ([1]; listed as PER): approximately 100 fold
- IC50 fold change compared to WT [2]: 106 fold
- IC50 fold change compared to WT ([2]; listed as PER): approximately 100 fold
